Key:
[1] = system: promastigotes of Leishmania major (strain MHOM/IL/81/Friedlin); assay: In vitro toxicity assay (resazurin), L. major promastigotes; type: cell-based; conditions: for L. major GI50 ratio: selectivity index GI50,HL-60/GI50,parasite; for L. major MIC ratio: selectivity index MIC HL-60/MIC parasite
Procedure: (§1) Bloodstream forms of Trypanosoma brucei (clone 427-221a) and human myeloid leukaemia HL-60 cells were maintained in Baltz medium supplemented with 16.7% heat-inactivated bovine serum in a humidified atmosphere containing 5% CO2 at 37 °C. Promastigotes of Leishmania major (strain MHOM/IL/81/Friedlin [16]) were cultured in Schneider’s insect medium supplemented with 10% heat-inactivated foetal bovine serum in a humidified atmosphere containing 5% CO2 at 27 °C.
(§2) Toxicity assays were carried out as previously described with some modifications. In brief, cells were seeded in 96-well plates in a final volume of 200 μL of appropriate medium containing various concentrations of test compounds (tenfold dilution from 100 µM to 1 nM) and 1% DMSO. Wells just containing medium and 1% DMSO served as controls. The initial cell densities were 1 × 10^4/mL for T. brucei bloodstream forms, 2.5 × 10^5/mL for L. major promastigotes, and 5 × 10^4/mL for HL-60 cells. After 24 h incubation, 20 µL of a 0.5 mM resazurin solution prepared in PBS was added and the cells were incubated for a further 48 h. Thereafter, the absorbance of wells was read on a BioTek ELx808 microplate reader using a test wavelength of 570 nm and a reference wavelength of 630 nm. The 50% growth inhibition (GI50) value, i.e., the concentration of a compound necessary to reduce the growth rate of cells by 50% compared to the control, was determined by linear interpolation. The minimum inhibitory concentration (MIC) values, i.e. the concentration of a compound at which all trypanosomes and human cells were killed, was determined microscopically.

[2] = system: bloodstream forms of Trypanosoma brucei (clone 427-221a); assay: In vitro toxicity assay (resazurin), T. brucei bloodstream forms; type: cell-based; conditions: for T. brucei GI50 ratio: selectivity index GI50,HL-60/GI50,parasite; for T. brucei MIC ratio: selectivity index MIC HL-60/MIC parasite
Procedure: as §1, §2

Structure (SMILES)	L. major GI50 ratio [1]	L. major MIC ratio [1]	T. brucei GI50 ratio [2]	T. brucei MIC ratio [2]
C=C1[C@@H]([C@@]2(C)C=CC(=O)C(C)(C)[C@@H]2CC(=O)OC)CC[C@@]2(C)[C@H](c3ccoc3)OC(=O)[C@H]3O[C@]132 [Compound 5, andirobin]	1	1	> 8.7	–
Cc1ccc(C(=O)Nc2ccc(S(=O)(=O)O)c3cc(S(=O)(=O)O)cc(S(=O)(=O)O)c23)cc1NC(=O)c1cccc(NC(=O)Nc2cccc(C(=O)Nc3cc(C(=O)Nc4ccc(S(=O)(=O)O)c5cc(S(=O)(=O)O)cc(S(=O)(=O)O)c45)ccc3C)c2)c1 [Suramin, reference compound]	–	–	> 2381	> 100
C[C@@H]1[C@H](O)[C@@H](C)/C=C/C=C/C=C/C=C/C=C/C=C/C=C/[C@H](O[C@@H]2O[C@H](C)[C@@H](O)[C@H](N)[C@@H]2O)C[C@@H]2O[C@](O)(C[C@@H](O)C[C@@H](O)[C@H](O)CC[C@@H](O)C[C@@H](O)CC(=O)O[C@H]1C)C[C@H](O)[C@H]2C(=O)O [Amphotericin B, reference compound]	1408	> 1000	–	–
CC1(C)C(=O)C=C[C@]2(C)C3C(=O)C[C@@]4(C)[C@H](c5ccoc5)OC(=O)[C@H]5O[C@]54[C@]3(C)[C@H](O)C[C@@H]12 (stereo partly shown) [Compound 2, kotschyienone B]	> 6.7	> 1	–	> 1
